Source: patent publication US20170198014A1, “POLYPEPTIDES AND THEIR USE FOR TREATING INFLUENZA” ([…] ITS CENTER FOR COMMERCIALIZATION, priority 2014, published 2017)

B1: Hsc1, monovalent version (designed binder)
chain: GIVNVPNCNTTKYQQLARTAVAIYNYHEQAHLTFVENLNCKEQLGEGDYYYITLAATDDAGKKAIYEAKIGVVESAGWTGVEEFKLV
B2: HAA.4 fused to 24alt1 (designed binder)
chain: KMEELFKKHKIVAVLRANSVEEAKEKALAVFEGGVHLIEITFTVPDADTVIKELSFLKEKGAIIGAGTVTSVEQCRKAVESGAEFIVSPHLDEEISQFCKEKGVFYMPGVMTPTELVKAMKLGHTILKLFPGQVVGPQFVKAMKGPFPNVKFVPTGGVNLSNVAAWFAAGVLAVGVGSALVKGTPNNVREKAKAFVEAIRGAASGMLAISMDTDKISNSFEDCKYFQLYVLSAGWTNTIFNDESGKEEIVKMSVDAIICKNISEENYKKFSKKIEIYHAEGDDVDKNISLFLEGELSKISNP
B3: HAA.6 fused to 24solo2 (designed binder)
chain: SKDSPIIEANGTLDELTSFIGEAKHYVDAEMQGILEEIQNDIYKIMGEIGSKGKIEGISEERIKWLEGLISRYEEMVNLKSFVLPGGTLESAKLDVCRTIARRAERKVATVLREFGIGKEALVYLNRLSDLLFLLARVIEIEASGMLAISMDTDKISNSFEDCKYFLIELKSAGWTNTIFNDESGKEEIVKMGVDAIICKNISEENYKKFSKKIEIYHAEGDDVNKNISLFLEGELSKISNP

Tests used:
[1] = biological target: hemagglutinin H1 (A/New Caledonia/20/1999) (influenza A virus A/New Caledonia/20/1999 (H1N1)); assay: BLI (FIG. 4)
[2] = biological target: hemagglutinin H3 (A/Hong Kong/1/1968-H3N2) (influenza A virus A/Hong Kong/1/1968 (H3N2)) (UniProt Q91MA7); assay: BLI (Octet), Ni-NTA purified protein

| Binder | Kd [1] | Kd [2] |
| --- | --- | --- |
| B1 | 1120 nM |  |
| B2 |  | 4.3 nM |
| B3 |  | 4.87 nM |
